Laboratory results taken from publication PMC2873526.

Target: PfNapS mutant C154A, acrylodan-labelled (Plasmodium falciparum)
Experiment: other fluorescence titration

Work on “histone H3 (from UniProt P68432 1-136) (natural protein)” yielded a change in the chromic shift relative to C47A of 2 times.
